The values below are quoted from earlier work in article PMC8954747 (Viruses, 2022).

Chains of the proteins cited; added tags and fusions are not shown. Lines headed by an entry give the natural chain unless they say otherwise; changes in a name come on top. Residues count along the entry.
UniProt Q14160, 860-950 limits assumed: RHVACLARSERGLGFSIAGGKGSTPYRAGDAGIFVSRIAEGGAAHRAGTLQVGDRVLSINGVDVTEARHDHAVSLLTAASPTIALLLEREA
UniProt Q14160, 725-815 limits assumed: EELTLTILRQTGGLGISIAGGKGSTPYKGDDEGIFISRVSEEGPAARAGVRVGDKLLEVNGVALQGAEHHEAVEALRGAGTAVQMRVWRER
UniProt Q14160, 1002-1093 limits assumed: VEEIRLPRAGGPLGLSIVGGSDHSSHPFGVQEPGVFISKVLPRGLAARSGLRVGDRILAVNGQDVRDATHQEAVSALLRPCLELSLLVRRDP
UniProt Q14160, 725-818: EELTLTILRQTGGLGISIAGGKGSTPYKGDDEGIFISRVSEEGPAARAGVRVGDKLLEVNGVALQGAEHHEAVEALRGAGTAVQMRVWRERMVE
UniProt Q14155: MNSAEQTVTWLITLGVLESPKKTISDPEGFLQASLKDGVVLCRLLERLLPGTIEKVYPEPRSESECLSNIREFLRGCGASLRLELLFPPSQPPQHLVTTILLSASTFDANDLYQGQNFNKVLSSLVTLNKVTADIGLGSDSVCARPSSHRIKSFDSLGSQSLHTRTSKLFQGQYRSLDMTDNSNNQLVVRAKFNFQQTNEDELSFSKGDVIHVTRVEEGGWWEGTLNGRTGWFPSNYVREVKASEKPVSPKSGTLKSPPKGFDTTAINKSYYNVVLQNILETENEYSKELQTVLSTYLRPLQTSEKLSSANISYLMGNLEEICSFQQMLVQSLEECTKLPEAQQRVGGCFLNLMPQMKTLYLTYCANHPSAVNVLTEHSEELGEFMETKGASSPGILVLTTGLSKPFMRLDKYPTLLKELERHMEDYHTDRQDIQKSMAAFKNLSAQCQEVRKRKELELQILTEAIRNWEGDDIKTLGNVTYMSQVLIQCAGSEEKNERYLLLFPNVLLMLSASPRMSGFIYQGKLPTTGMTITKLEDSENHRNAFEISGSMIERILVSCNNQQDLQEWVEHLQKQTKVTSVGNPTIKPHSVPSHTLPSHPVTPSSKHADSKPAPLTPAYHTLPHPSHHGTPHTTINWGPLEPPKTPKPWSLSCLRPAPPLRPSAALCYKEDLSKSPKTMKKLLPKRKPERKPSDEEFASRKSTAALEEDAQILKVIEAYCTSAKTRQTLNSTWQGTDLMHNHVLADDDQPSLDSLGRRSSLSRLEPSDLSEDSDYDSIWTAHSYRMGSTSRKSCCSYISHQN

Data set [1] has as its target human Scribble (SCRIB) PDZ2 domain (residues 860–950) (Homo sapiens, UniProt Q14160). The settings on record: ITC, previously measured; read-out: affinity of SCRIB PDZ2 for β-PIX; cited from earlier work.
For data set [2], the target named is human Scribble (SCRIB) PDZ1 domain (residues 725–815) (Homo sapiens, UniProt Q14160). The note with it: ITC, previously measured; read-out: affinity of SCRIB PDZ1 for β-PIX; cited from earlier work.
Data set [3] addresses SCRIB PDZ3 (residues 1002–1093) (Homo sapiens, UniProt Q14160). The note with it: ITC, previously measured; read-out: affinity of SCRIB PDZ3 for β-PIX; cited from earlier work.
The target in another data set is β-PIX PBM (Homo sapiens) (UniProt Q14155). The note with it: cited from earlier work.

Regarding PAWDETNL [β-PIX], the Kd in data set [1] was 67.8 ± 7.9 µM; in data set [2], 3.3 ± 0.3 µM; in data set [3] it was 14.7 ± 2.1 µM.
As to SCRIB PDZ1 (from UniProt Q14160), the Kd with β-PIX PBM (Homo sapiens) was 3.3 µM.
